Experiments:
Format in all cases: cell-based
Conditions in all cases: compound released, GC/MS of head space
[1] = test system: Staphylococcus aureus NBRC12732; assay: Scent emission test by microorganism, Staphylococcus aureus
Description: (§1) Culture of Staphylococcus aureus strain NBRC12732, Corynebacterium xerosis strain JCM1324, Pseudomonas aeruginosa strain NBRC13275, and Moraxella osloensis strain ATCC19976:
(§2) After inoculating each of bacteria in Muller-Hinton liquid medium, shaking culture was performed at 30° C. for 20 hours, and 3 mL of the resulting preculture solution was transferred to a vial bottle. 10 mg of each of the fragrance precursors was mixed therewith and after hermetical sealing, shaking culture was further performed at 30° C. for 20 hours.
(§3) A peak area of the scent-emitting compound was obtained by performing GC/MS analysis of the head space component included in the vial bottle containing 3 mL of a microorganism culture solution in which 10 mg of the fragrance precursor was mixed. A microorganism culture solution having not mixed therein the fragrance precursor was used as the control, and a peak area of the control was obtained by the same method. The scent emission amount was determined from the difference between the obtained peak area of the scent-emitting compound and the peak area of the control.
(§4) Measurement instrument: 7890GC/5975MSD (manufactured by Agilent Technologies) • Column: BC-WAX 50 m×0.25 mm I.D. • Temperature rise: 70° C. to 220° C., 4° C./min • Split ratio: splitless

[2] = test system: Malassezia furfur NBRC0656; assay: Scent emission test by microorganism, Malassezia furfur
Description: Culture of Malassezia furfur Strain NBRC0656:
After inoculating the bacterium in Sabouraud liquid medium containing 0.1% Tween 80, static culture was performed at 28° C. for 3 days under anaerobic conditions, and 3 mL of the resulting preculture solution was transferred to a vial bottle. 10 mg of the fragrance precursor was mixed therewith and after hermetical sealing, static culture was further performed at 28° C. for 3 days.
as §3, §4

[3] = test system: Propionibacterium acnes JCM6473; assay: Scent emission test by microorganism, Propionibacterium acnes
Description: Culture of Propionibacterium acnes Strain JCM6473:
After inoculating the bacterium in GAM bouillon liquid medium containing Hemin 0.5 ppm and Menadione 0.5 ppm, static culture was performed at 28° C. for 3 days under anaerobic conditions, and 3 mL of the resulting preculture solution was transferred to a vial bottle. 10 mg of each of the fragrance precursors was mixed therewith and after hermetical sealing, static culture was further performed at 28° C. for 3 days.
as §3, §4

[4] = test system: Moraxella osloensis ATCC19976; assay: Scent emission test by microorganism, Moraxella osloensis
Description: as §1, §2, §3, §4

Row | SMILES | Scent-Emitting Compound [1] | Scent-Emitting Compound [2] | Scent-Emitting Compound [3] | Scent-Emitting Compound [4]
1 | CC/C=C\CCOC(=O)c1ccccc1O [(Z)-3-hexenyl salicylate] | (Z)-3-hexenol | – | – | –
2 | C=CCCCCCCCCOC(=O)c1ccccc1 [Example 14, 9-decenyl Benzoate] | – | 9-decenol | 9-decenol | 9-decenol
3 | CC(C)=CCC/C(C)=C/COC(=O)c1ccccc1 [geranyl benzoate] | geraniol | geraniol | geraniol | –
4 | O=C(C=Cc1ccccc1)OCCc1ccccc1 [phenylethyl cinnamate] | phenylethyl alcohol | phenylethyl alcohol | phenylethyl alcohol | –

Source: patent publication US11802258B2, “Perfume precursor” (TAKASAGO INTERNATIONAL CORPORATION, priority 2017, dated 2023)
